Pooled drug test results. Numbers come from NIAID ChemDB, via PubChem.

Shared fields: growth or infection tests; agent: HIV-1; measure: EC50

An empty or dashed field is not shown. Neighbouring rows are from separate reports. ECn: concentration that inhibits the pathogen or its effect by n%.

| structure | strain or isolate | mutations | cells | method | value |
|---|---|---|---|---|---|
| C=CCNC(=O)c1c(COC)nc(Nc2ccc(C#N)cc2)nc1Nc1c(C)cc(/C=C/C#N)cc1C | IIIB | - | MT4 CMV-EGFP | - | 0.00219 µM |
| [2H]C(CCCN)(CNC(=O)c1ccc(Cl)cc1)NC(=O)C[C@@]12CC[C@]3(C)[C@H](CC[C@@H]4[C@@]5(C)CC[C@H](OC(=O)[C@H]6C[C@@H](C(=O)O)C6(C)C)C(C)(C)[C@@H]5CC[C@]43C)C1=C(C(C)C)C(=O)C2 | 92HT599 | - | MT-2 | p24 / ELISA | <1 µM |
| COCc1nc(Nc2ccc(C#N)cc2)nc(Nc2c(C)cc(/C=C/C#N)cc2C)c1C(=O)NCc1ccccn1 | IIIB | - | MT4 CMV-EGFP | - | 0.00148 µM |
| COc1cc(-c2ccc(N=Nc3ccc4c(S(=O)(=O)O)cc(S(=O)(=O)O)c(N)c4c3O)c(OC)c2)ccc1N=Nc1ccc2c(S(=O)(=O)O)cc(S(=O)(=O)O)c(N)c2c1O | C | - | CEM + CEM-SS | RT activity | 0.4 µM |
| Cc1nc(C)c(CNC[C@H](O)[C@@]23CC[C@]4(C)[C@H](CC[C@@H]5[C@@]6(C)CC[C@H](OC(=O)[C@H]7C[C@@H](C(=O)O)C7(C)C)C(C)(C)[C@@H]6CC[C@]54C)C2=C(C(C)C)C(=O)C3)s1 | 92HT599 | - | MT-2 | p24 / ELISA | <1 µM |
| COCc1nc(Nc2ccc(C#N)cc2)nc(Nc2c(C)cc(/C=C/C#N)cc2C)c1C(=O)N1CCC(O)CC1 | MDR | - | MT4 CMV-EGFP | - | 6.17 µM |
| CC(C)C1=C2[C@H]3CC[C@@H]4[C@@]5(C)CC[C@H](OC(=O)[C@H]6C[C@@H](C(=O)O)C6(C)C)C(C)(C)[C@@H]5CC[C@@]4(C)[C@]3(C)CC[C@@]2(CC(=O)NC[C@@H](NC(=O)c2ccc(Cl)cc2)C(C)O)CC1=O | 92HT599 | - | MT-2 | p24 / ELISA | <1 µM |
| N#CC1=CC2Nc3ccccc3C2N(c2ccc([N+](=O)[O-])cc2)C1=O | O-MVP5180 | - | HeLa | GFP / fluorescence | 0.001 µM |
| Cc1ccc(C(=O)NCC[C@@]23CC[C@]4(C)[C@H](CC[C@@H]5[C@@]6(C)CC[C@H](OC(=O)[C@H]7C[C@@H](C(=O)O)C7(C)C)C(C)(C)[C@@H]6CC[C@]54C)C2=C(C(C)C)C(=O)C3)cc1 | 92HT599 | - | MT-2 | p24 / ELISA | <1 µM |
| CCCc1cc(=O)oc2c3c(c4c(c12)OC(C)(C)CC4)O[C@@H](C)[C@H](C)[C@@H]3O | HEPT-resistant (RT P236L) | RT-P236L | CEM + CEM-SS | XTT | 0.2 µM |
| COCCNC(=O)c1c(COC)nc(Nc2ccc(C#N)cc2)nc1Oc1c(C)cc(/C=C/C#N)cc1C | IIIB | - | MT4 CMV-EGFP | - | 0.00288 µM |
| CC(C)=CCOc1cc(NC(=S)c2ccoc2C)ccc1Cl | NL4-3 | RT-A98G | CEM + CEM-SS | p24 | 0.02 µM |
| CC(C)C1=C2[C@H]3CC[C@@H]4[C@@]5(C)CC[C@H](OC(=O)[C@H]6C[C@@H](C(=O)O)C6(C)C)C(C)(C)[C@@H]5CC[C@@]4(C)[C@]3(C)CC[C@@]2([C@@H](O)CNC[C@@H]2CCCNC2)CC1=O | 92HT599 | - | MT-2 | p24 / ELISA | <1 µM |
| COCc1nc(Nc2ccc(C#N)cc2)nc(Nc2c(C)cc(/C=C/C#N)cc2C)c1C(=O)NCCc1ccccn1 | IIIB | - | MT4 CMV-EGFP | - | 0.00282 µM |
| CC(C)C1=C2[C@H]3CC[C@@H]4[C@@]5(C)CC[C@H](OC(=O)[C@H]6C[C@@H](C(=O)O)C6(C)C)C(C)(C)[C@@H]5CC[C@@]4(C)[C@]3(C)CC[C@@]2(CCNC(=O)[C@H]2CCCNC2)CC1=O | 92HT599 | - | MT-2 | p24 / ELISA | <1 µM |
| CN1c2ccccc2C2C1C=C(C#N)C(=O)N2c1ccc([N+](=O)[O-])cc1 | 2AG | - | HeLa | GFP / fluorescence | 0.19 µM |
| Nc1ccc2cc(S(=O)(=O)O)cc(O)c2c1N=Nc1ccc(NC(=O)Nc2ccc(N=Nc3c(N)ccc4cc(S(=O)(=O)O)cc(O)c34)c(S(=O)(=O)O)c2)cc1S(=O)(=O)O | RF | - | CEM + CEM-SS | cytopathic effect / XTT | 10 µM |
| COCc1nc(Nc2ccc(C#N)cc2)nc(Nc2c(C)cc(/C=C/C#N)cc2C)c1C(=O)NCC(OC)OC | K103N + Y181C | - | MT4 CMV-EGFP | - | 0.0166 µM |
| CC(C)C1=C2[C@H]3CC[C@@H]4[C@@]5(C)CC[C@H](OC(=O)[C@H]6C[C@@H](C(=O)O)C6(C)C)C(C)(C)[C@@H]5CC[C@@]4(C)[C@]3(C)CC[C@@]2([C@@H](O)CNC(=O)Cc2ccc(Cl)cc2)CC1=O | 92HT599 | - | MT-2 | p24 / ELISA | <1 µM |
| COCc1nc(Nc2ccc(C#N)cc2)nc(Oc2c(C)cc(/C=C(\C)C#N)cc2C)c1C(=O)NCc1ccncc1 | MDR | - | MT4 CMV-EGFP | - | 1.55 µM |
| Cc1cc(S(N)(=O)=O)ccc1NC(=O)COc1ccc(Cl)cc1C(=O)c1cc(F)cc(C(F)(F)F)c1 | IIIB | RT-Y188C | HELA MAGI | luciferase | 0.0004 µM |
| C[C@@H]1CCO[C@H]2Cn3cc(C(=O)NCc4ccc(F)cc4F)c(=O)c(O)c3C(=O)N12 | NL4-3 | G118R | CBMC | RT activity | 0.0077 µM |

A second listing of 3 rows from above:

structure	strain or isolate	mutations	cells	method	value
CC(C)C1=C2[C@H]3CC[C@@H]4[C@@]5(C)CC[C@H](OC(=O)[C@H]6C[C@@H](C(=O)O)C6(C)C)C(C)(C)[C@@H]5CC[C@@]4(C)[C@]3(C)CC[C@@]2([C@@H](O)CNC[C@@H]2CCCNC2)CC1=O	92HT599	-	MT-2	p24 / ELISA	<1 µM
COCc1nc(Nc2ccc(C#N)cc2)nc(Oc2c(C)cc(/C=C(\C)C#N)cc2C)c1C(=O)NCc1ccncc1	MDR	-	MT4 CMV-EGFP	-	1.55 µM
Cc1nc(C)c(CNC[C@H](O)[C@@]23CC[C@]4(C)[C@H](CC[C@@H]5[C@@]6(C)CC[C@H](OC(=O)[C@H]7C[C@@H](C(=O)O)C7(C)C)C(C)(C)[C@@H]6CC[C@]54C)C2=C(C(C)C)C(=O)C3)s1	92HT599	-	MT-2	p24 / ELISA	<1 µM